Anti-infective test results gathered from many reports (values: NIAID ChemDB through PubChem).

Shared fields: whole-cell or culture tests; species: HIV-1

An empty or dashed field is not shown. Rows are shuffled and stem from different studies. ECn: concentration that inhibits the pathogen or its effect by n%.

smiles | method | read-out | mutations | strain | cell line | setting | result
O=c1ccn(C[C@@H]2C[C@@]2(CO)c2ccccc2)c(=O)[nH]1 | cytopathic effect | EC50 |  |  | MT-4 |  | >100 µg/mL
CC[C@H]1OC(=O)[C@H](C)[C@@H](O[C@H]2C[C@@](C)(OC)[C@@H](O)[C@H](C)O2)[C@H](C)[C@@H](O[C@@H]2O[C@H](C)C[C@H](N(C)C)[C@H]2O)[C@](C)(O)C[C@@H](C)C(=O)[C@H](C)[C@@H](O)[C@]1(C)O | RT activity | EC50 |  | LAV-1 | CEM |  | <107 µg/mL
O=C1N(Cc2ccc3[nH]ncc3c2)[C@H](CCc2ccccc2)[C@@H](O)[C@@H](Cc2ccccc2)N1Cc1ccc2[nH]ncc2c1 |  | EC50 |  | RF | MT-2 |  | <0.006 µM
Cc1ccc(NC(=O)CSc2nncnc2-c2ccccc2Cl)c(Br)c1 | MTT | EC50 |  | RES056 | MT-4 |  | >42 µM
Cc1ccnc2c1NC(=O)c1cccnc1N2C1CC1 | cytopathic effect / XTT | EC50 | RT-K103N | NL4-3 | CEM + CEM-SS |  | >2 µM
Cc1cn(C[C@H]2C[C@@]2(CO)c2ccccc2)c(=O)[nH]c1=O | cytopathic effect | EC50 |  |  | MT-4 |  | >100 µg/mL
CC(C)=CCN1Cc2cccc3[nH]c(=S)n(c23)C[C@@H]1C | RT activity | EC50 | RT-L92I | PD165BC(RT-L92I) | MT-2 |  | 0.079 µM
Cc1cn([C@H]2C[C@H](N=[N+]=[N-])[C@@H](COP(=O)(OCCSC(=O)C(C)(C)C)OCCSC(=O)C(C)(C)C)O2)c(=O)[nH]c1=O | p24 | EC50 |  | LAV1-BRU | MOLT-4/8 |  | 0.021 µM
Nc1ccc(CN2C(=O)N(Cc3ccc4[nH]ncc4c3)[C@H](Cc3ccccc3)[C@H](O)[C@@H](O)[C@H]2Cc2ccccc2)cc1-n1cccn1 |  | EC50 |  | RF WT | MT-2 |  | <0.006 µM
O=C(CSc1nncnc1-c1ccccc1Cl)Nc1ccccc1Br | MTT | EC50 |  | IIIB | MT-4 |  | 0.092 µM
NC(=O)c1cc(CN2C(=O)N(Cc3ccc4[nH]ncc4c3)[C@H](Cc3ccccc3)[C@H](O)[C@@H](O)[C@H]2Cc2ccccc2)ccc1F |  | EC50 |  | RF | MT-2 |  | <0.014 µM
CC(C)CN(C[C@@H](O)[C@H](Cc1ccccc1)NC(=O)[C@H](CC(N)=O)NC(=O)c1ccc2ccccc2n1)C(=O)NC(C)(C)C | p24 | EC95 |  | NL4-3 | MT-4 |  | 0.2 µM
C#Cc1ccc(Nc2nccc(Oc3c(C)cc(-c4cn(Cc5ccccc5)nn4)cc3C)n2)cc1 | MTT | EC50 |  | IIIB | MT-4 |  | 0.049 µM
Cc1c(C#N)cc(C(F)F)cc1Oc1c(C(F)(F)C(F)F)ncn(Cc2cc(F)c[nH]c2=O)c1=O | luminescence | EC50 | K103N |  |  |  | 0.0239 µM
O=C(N[C@H]1c2ccccc2C[C@H]1O)[C@H](Cc1ccccc1)C[C@H](O)CN1C(=O)[C@@H](Cc2cccnc2)C[C@@H]1Cc1ccccc1 |  | EC50 |  |  | MT-4 + MT4 |  | 0.21 µM
COc1ccc(S(=O)(=O)N(CC(C)C)C[C@@H](O)[C@H](Cc2ccccc2)NC(=O)O[C@H]2CO[C@H]3OCC(F)(F)[C@H]32)cc1 |  | EC50 | L10I K14R L33I M36I M46I F53I K55R I62V L63P A71V G73S V82A L90M I93L | Clinical isolate | PBMC | clinical isolate, multidrug-resistant | 0.014 µM
Cc1cn(C[C@@H]2C[C@@]2(CO)c2ccccc2)c(=O)[nH]c1=O | cytopathic effect | EC50 |  |  | MT-4 |  | >100 µg/mL
CCc1c(Sc2ccccn2)n(COCc2ccccc2)c(=O)[nH]c1=O | cytopathic effect / XTT | EC50 | RT-D67N K70R Y181C T215Y K219Q | 4XAZT+Y181C (RT D67N K70R Y181C T215Y K219Q) | CEM + CEM-SS |  | 0.32 µM
Nc1ccc(CN2C(=O)N(Cc3ccc4[nH]ncc4c3)[C@H](Cc3ccccc3)[C@H](O)[C@@H](O)[C@H]2Cc2ccccc2)cc1-n1nccn1 |  | EC50 |  | RF | MT-2 |  | <0.012 µM
CO[C@H]1O[C@@H](n2ccc(=O)[nH]c2=O)C[C@@H]1N=[N+]=[N-] | RT activity | EC50 | RT-S156A | HX(RT-S156A) | MT-2 |  | 0.76 µM
Nc1ccn([C@H]2CC[C@@H](CO)O2)c(=O)n1 | MTT | EC50 |  | IIIB | MT-4 |  | 1 µM
C#Cc1ccc(Nc2nccc(Oc3c(C)cc(-c4cn(Cc5cccc([N+](=O)[O-])c5)nn4)cc3C)n2)cc1 | MTT | EC50 | Y181C | IIIB | MT-4 |  | 4.44 µM
O=C(NC(=S)Nc1ccc(Br)cn1)c1ccccc1[N+](=O)[O-] | MTT | EC50 |  | LAI | MT-2 |  | 0.55 µM
CC(C)(C)NC(=O)[C@@H]1C[C@@H]2CCCC[C@@H]2CN1C[C@@H](O)[C@H](Cc1ccccc1)NC(=O)[C@H](CC(N)=O)NC(=O)c1ccc2ccccc2n1 | p24 | EC50 | PR-L63P V82T I84V | NL4-3 | MT-4 |  | <0.05 µM
Cc1c(Sc2ccccc2)n(COCCO)c(=O)[nH]c1=O | cytopathic effect / XTT | EC50 | RT-L100I | IIIB | CEM + CEM-SS |  | 204 µM
CC(C)(C)NC(=O)[C@@H]1C[C@@H]2CCCC[C@@H]2CN1C[C@@H](O)[C@H](Cc1ccccc1)NC(=O)[C@H](CC(N)=O)NC(=O)c1ccc2ccccc2n1 |  | EC50 | A28S L33F V82I GRL04810-resistant | NL4-3 | MT-4 |  | 0.032 µM
CC(=O)SCCOP(=O)(OCCSC(C)=O)OC[C@H]1O[C@@H](n2cc(C)c(=O)[nH]c2=O)C[C@@H]1N=[N+]=[N-] | p24 | EC50 |  | RF | MOLT-4/8 |  | 0.023 µM
Nc1cc(CN2C(=O)N(Cc3ccc4[nH]ncc4c3)[C@H](Cc3ccccc3)[C@H](O)[C@@H](O)[C@H]2Cc2ccccc2)ccc1F |  | EC50 |  | RF | MT-2 |  | <0.014 µM
C#Cc1ccc(Nc2nccc(Oc3c(C)cc(-c4cn(CC(=O)Nc5ccc(F)cc5)nn4)cc3C)n2)cc1 | MTT | EC50 | L100I | IIIB | MT-4 |  | >1.41 µM
CC(C)CN(C[C@@H](O)[C@H](Cc1ccccc1)NC(=O)O[C@H]1CCOC1)S(=O)(=O)c1ccc(N)cc1 |  | EC50 | L10F M46I I54V V82A LPV resistant | NL4-3 | MT-4 |  | 0.033 µM
Cc1cn([C@H]2C[C@H](N=[N+]=[N-])[C@@H](CO)O2)c(=O)[nH]c1=O | MTT | EC50 |  | RES056 | MT-4 |  | 0.02 µM
Cc1cn([C@H]2C[C@H](N=[N+]=[N-])[C@@H](COP(=O)(OCCSC(=O)C(C)C)OCCSC(=O)C(C)C)O2)c(=O)[nH]c1=O | p24 | EC50 |  | LAV1-BRU | MOLT-4/8 |  | 0.035 µM
C#Cc1ccc(Nc2nccc(Oc3c(C)cc(-c4cn(Cc5ccc(O)cc5)nn4)cc3C)n2)cc1 | MTT | EC50 | Y188L | IIIB | MT-4 |  | >2.1 µM
CC(C)CN(C[C@@H](O)[C@H](Cc1ccccc1)NC(=O)[C@H](CC(N)=O)NC(=O)c1ccc2ccccc2n1)C(=O)NC(C)(C)C | RT activity | EC50 |  |  | CEM |  | <0.08 µg/mL
O=C(CSc1nncnc1-c1ccccc1Cl)Nc1ccccc1F | MTT | EC50 |  | IIIB | MT-4 |  | 0.21 µM
C#Cc1ccc(Nc2nccc(Oc3c(C)cc(-c4cn(Cc5ccc(S(N)(=O)=O)cc5)nn4)cc3C)n2)cc1 | MTT | EC50 | F227L and V106A | IIIB | MT-4 |  | >86.44 µM
Cc1cn([C@H]2C[C@H](N=[N+]=[N-])[C@@H](CO)O2)c(=O)[nH]c1=O | p24 / luciferase | EC50 |  | NL4-3 | MT-4 |  | 0.26 µg/mL
Cc1ccc(CN2C(=O)N(Cc3ccc4[nH]ncc4c3)[C@H](Cc3ccccc3)[C@H](O)[C@@H](O)[C@H]2Cc2ccccc2)cc1N |  | EC50 |  | RF | MT-2 |  | <0.015 µM
C#Cc1ccc(Nc2nccc(Oc3c(C)cc(-c4cn(CC(=O)Nc5ccc(S(C)(=O)=O)cc5)nn4)cc3C)n2)cc1 | MTT | EC50 |  | RES056 | MT-4 |  | >6.36 µM
O=C1N(Cc2cccc(O)c2)[C@H](Cc2ccccc2)[C@H](O)[C@@H](O)[C@@H](Cc2ccccc2)N1Cc1ccc2[nH]ncc2c1 |  | EC50 |  | RF | MT-2 |  | <0.036 µM
O=C(N[C@H]1c2ccccc2C[C@H]1O)[C@H](Cc1ccccc1)C[C@H](O)CN1C(=O)[C@@H](Cc2ccccc2)C[C@@H]1Cc1ccccc1 |  | EC50 |  |  | MT-4 + MT4 |  | 0.32 µM
O=C1N(Cc2cccc(NCc3nc4ccccc4s3)c2)[C@H](Cc2ccccc2)[C@H](O)[C@@H](O)[C@@H](Cc2ccccc2)N1Cc1ccc2[nH]ncc2c1 |  | EC50 |  | RF WT | MT-2 |  | <0.005 µM
C#Cc1ccc(Nc2nccc(Oc3c(C)cc(-c4cn(CCC(=O)OC)nn4)cc3C)n2)cc1 | MTT | EC50 |  | RES056 | MT-4 |  | >23.76 µM

Repeating the final 6 entries:

smiles	method	read-out	mutations	strain	cell line	setting	result
Cc1ccc(CN2C(=O)N(Cc3ccc4[nH]ncc4c3)[C@H](Cc3ccccc3)[C@H](O)[C@@H](O)[C@H]2Cc2ccccc2)cc1N		EC50		RF	MT-2		<0.015 µM
C#Cc1ccc(Nc2nccc(Oc3c(C)cc(-c4cn(CC(=O)Nc5ccc(S(C)(=O)=O)cc5)nn4)cc3C)n2)cc1	MTT	EC50		RES056	MT-4		>6.36 µM
O=C1N(Cc2cccc(O)c2)[C@H](Cc2ccccc2)[C@H](O)[C@@H](O)[C@@H](Cc2ccccc2)N1Cc1ccc2[nH]ncc2c1		EC50		RF	MT-2		<0.036 µM
O=C(N[C@H]1c2ccccc2C[C@H]1O)[C@H](Cc1ccccc1)C[C@H](O)CN1C(=O)[C@@H](Cc2ccccc2)C[C@@H]1Cc1ccccc1		EC50			MT-4 + MT4		0.32 µM
O=C1N(Cc2cccc(NCc3nc4ccccc4s3)c2)[C@H](Cc2ccccc2)[C@H](O)[C@@H](O)[C@@H](Cc2ccccc2)N1Cc1ccc2[nH]ncc2c1		EC50		RF WT	MT-2		<0.005 µM
C#Cc1ccc(Nc2nccc(Oc3c(C)cc(-c4cn(CCC(=O)OC)nn4)cc3C)n2)cc1	MTT	EC50		RES056	MT-4		>23.76 µM